Compound potency records, mixed from different reports. Data source: NIAID ChemDB in PubChem.

Common to all: growth or infection tests; organism: HIV-1; read-out: fold resistance

Conditions beyond the fields shown may differ between rows. Fold resistance: result on the changed form divided by that on wild type. Blank or dashed fields: not listed here.

structure	cells	mutations	strain	read by	result
CC(C)[C@H](NC(=O)OCc1ccccn1)C(=O)N[C@@H](Cc1ccccc1)[C@@H](O)C[C@H](Cc1ccccc1)NC(=O)OCc1cccnc1	MT-4	PR-L10R M46I L63P V82T	NL4-3	p24	3.75
C/C=C/CSc1cc(NC(=S)c2ccsc2C)ccc1Cl	CEM + CEM-SS	RT-V106I	NL4-3	p24	34
CCOC(=O)c1cc(NC(=S)OC(C)C)ccc1SC	CEM	RT-L100I	-	syncytia	58.5
N#Cc1cc(Cl)cc(Oc2c(Br)ccc(CC(=O)Nc3ccc(S(N)(=O)=O)cc3Cl)c2F)c1	MT-4	Y188L	-	-	26
CCc1c(Sc2cc(C)cc(C)c2)n(COCCO)c(=S)[nH]c1=O	CEM	RT-Y181I	IIIB	syncytia	250
Cc1cc(NS(=O)(=O)CC2CCCCC2)c(C)c(C(OC(C)(C)C)C(=O)O)c1-c1ccc2c(c1)CCCO2	MT-4	PI-resistant ARP-4595 (M46I/L63P/V82T/I84V)	NL4-3	luminescence	1
CN1CCN(C(=O)c2ccc3c(=O)c4ccccc4[nH]c3c2)CC1	CEM	RT-V106A	-	syncytia	92.2
Cc1cc(S(N)(=O)=O)ccc1NC(=O)COc1ccc(Cl)cc1C(=O)c1cc(Cl)cc(Cl)c1	MT-4	RT-Y181C	Nevirapine-resistant (RT Y181C)	cytopathic effect / propidium iodide	~1
CC[C@H](C)OC(=S)Nc1ccc(Cl)c(C(=O)OC(C)C)c1	CEM	RT-E138K	-	syncytia	2.33
CCC(=O)c1ccc(F)c([C@@H]2C[C@@H]2NC(=O)Nc2ccc(C#N)cn2)c1O	TZM-bl	NNRTI-resistant (RT N348I)	LAI	β-galactosidase / luminescence	1.5
COc1ccccc1C(=O)Nc1ccc(Cl)c(C(=O)OC(C)C)c1	CEM + CEM-SS	RT-Y181C	UC82-R (RT-Y181C)	cytopathic effect / XTT	10.9
C=C(C)COc1cc(NC(=S)OC(C)C)ccc1Cl	CEM	RT-L100I	-	syncytia	>11.1
CCc1c(Sc2ccccc2)n(COCc2ccccc2)c(=S)[nH]c1=O	CEM	RT-Y181C	IIIB	syncytia	130
CC(C)O/N=C/c1cc(NC(=S)OC(C)C)ccc1Cl	CEM	RT-V106A	-	syncytia	45
Cc1cc(C#N)cc(C(=O)c2cc(Cl)ccc2OCC(=O)Nc2ccc(S(N)(=O)=O)nc2C)c1	HeLa + HELA CD4+	RT-P236L	HXB2	β-galactosidase	~1
Cc1ccc(C2CC2)c(-c2cc(F)c3c(c2C)CCCO3)c1[C@H](OC1CC1)C(=O)O	MT-4	A128T	NL4-3	p24 / luminescence	4
Cc1cc(OCCCN2CCOCC2)ccc1NC(=O)COc1ccc(Cl)cc1C(=O)c1cccs1	HeLa + HELA CD4+	RT-Y181C	HXB2	β-galactosidase	~1
CCC(CC)OC(=O)c1cc(NC(=S)OC(C)C)ccc1Cl	CEM	RT-L100I	-	syncytia	17.6
CC(C)=CCOc1cc(NC(=S)c2ccoc2C)ccc1Cl	CEM + CEM-SS	RT-M184I	3TC-RS (RT-M184I)	cytopathic effect / XTT	3
O=C1Nc2ccc(F)c(F)c2[C@@](/C=C/C2CC2)(C(F)(F)F)N1	-	RT-V106A	-	-	<6.32
CC(C)=CCOc1cc(NC(=S)c2ccsc2C)ccc1Cl	CEM + CEM-SS	RT-K103N	NL4-3 (RT K103N)	cytopathic effect / XTT	11.7
CCOCn1c(Sc2cc(C)cc(C)c2)c(CC)c(=O)[nH]c1=O	CEM	RT-Y181C	IIIB	syncytia	75
CC(C)OC(=O)Nc1ccc(Cl)c(C(=O)OC(C)C)c1	CEM	RT-Y181C	-	syncytia	>1.82
CC(C)c1c(Sc2ccccc2)n(COCCO)c(=O)[nH]c1=O	CEM	Nevirapine resistant (RT Y181C)	IIIB	syncytia	96.4
CCOC(=O)COc1cc(NC(=S)OC(C)C)ccc1Cl	CEM	RT-V106A	-	syncytia	5.13
Cc1cc(C)cc(C(=O)c2cc(Cl)ccc2OCC(=O)Nc2ccc(S(N)(=O)=O)cc2C)c1	HeLa + HELA CD4+	RT-Y181C	HXB2	β-galactosidase	~1
O=C1Nc2ccc(Cl)cc2[C@@](C#CC2CC2)(C(F)(F)F)N1	-	RT-Y181C	-	-	<6.32
CC(C)OC(=S)Nc1ccc(Cl)c(C(=O)OC2(C)COC2)c1	CEM	RT-L100I	-	syncytia	14

A second listing of 2 rows from above:

C/C=C/CSc1cc(NC(=S)c2ccsc2C)ccc1Cl ; cells: CEM + CEM-SS ; mutations: RT-V106I ; strain: NL4-3 ; read by: p24 ; result: 34
CCC(CC)OC(=O)c1cc(NC(=S)OC(C)C)ccc1Cl ; cells: CEM ; mutations: RT-L100I ; read by: syncytia ; result: 17.6